Anti-infective test results gathered from many reports (values: NIAID ChemDB through PubChem).

Shared fields: cytotoxicity tests; cells: MT-4; read-out: CC50

Blank or dashed fields: not listed here. Rows are shuffled and stem from different studies. CCn: concentration that lowers growth or viability of the cells by n%.

SMILES | method | result
Nc1nc(N)c2ncn(CCOCP(=O)(O)O)c2n1 |  | >2.67 µg/mL
Cc1cccc(Nn2cnc(C)c2C)c1 |  | 312 µM
CC(C)CN(C[C@@H](O)[C@H](Cc1ccccc1)NC(=O)O[C@H]1CO[C@H]2OCC[C@H]21)S(=O)(=O)c1ccc(-c2csc(Nc3ccncc3)n2)cc1 | MTT | 11.2 µM
Cc1[nH]c(=S)n(Nc2cccc(Cl)c2)c1-c1cccc(C#N)c1 |  | 99.4 µM
CC(C)CN(C[C@@H](O)[C@H](Cc1ccccc1)NC(=O)O[C@H]1CO[C@H]2OCC[C@H]21)S(=O)(=O)c1ccc(-c2coc(-c3ccco3)n2)cc1 | MTT | >32.4 µM
CCn1cc(C(=O)O)c(=O)c2c(F)c(N3CCN(CN4C(=O)/C(=N\c5ncc(Cc6cc(OC)c(OC)c(OC)c6)c(N)n5)c5cc(C)ccc54)C(C)C3)c(F)cc21 |  | 92.6 µM
CCOCn1c(Cc2ccccc2)c(C(C)C)c(=O)[nH]c1=O | MTT | >100 µM
Cc1cccc(Nn2cnc(C)c2-c2ccccc2)c1 |  | 27.04 µM
CCc1ccc(C(=O)Nc2ccc(S(=O)(=O)O)c3cc(S(=O)(=O)O)cc(S(=O)(=O)O)c23)cc1NC(=O)Nc1cc(C(=O)Nc2ccc(S(=O)(=O)O)c3cc(S(=O)(=O)O)cc(S(=O)(=O)O)c23)ccc1CC |  | >500 µg/mL
Cc1ncn(Nc2cccc(Cl)c2)c1C |  | 214 µM
CCc1c(Cc2ccccc2)n(COCC2CC2)c(=O)[nH]c1=O | MTT | >100 µM
CC(C)c1ccc(C(=O)Nc2ccc(S(=O)(=O)[O-])c3cc(S(=O)(=O)[O-])cc(S(=O)(=O)[O-])c23)cc1NC(=O)Nc1cc(C(=O)Nc2ccc(S(=O)(=O)[O-])c3cc(S(=O)(=O)[O-])cc(S(=O)(=O)[O-])c23)ccc1C(C)C.[Na+].[Na+].[Na+].[Na+].[Na+].[Na+] |  | >500 µg/mL
COc1cc(Cc2cnc(/N=C3\C(=O)N(CN4CCN(c5c(OC)cc6c(c5F)c(=O)c(C(=O)O)cn6C5CC5)CC4C)c4ccc(C)cc43)nc2N)cc(OC)c1OC |  | 81.4 µM
O=C(Nc1ccccc1-c1cccc(C(=O)Nc2ccc(S(=O)(=O)O)c3cc(S(=O)(=O)O)cc(S(=O)(=O)O)c23)c1)Nc1ccccc1-c1cccc(C(=O)Nc2ccc(S(=O)(=O)O)c3cc(S(=O)(=O)O)cc(S(=O)(=O)O)c23)c1 |  | >500 µg/mL
S=c1[nH]c(-c2ccccc2)c(-c2ccccc2)n1Nc1cccc(Cl)c1 |  | 36.31 µM
CN(CC1c2nc(C(=O)NCc3ccc(F)cc3)c(O)c(=O)n2CCN1C)C(=O)c1cccc[n+]1[O-] | microscopy | >10 µM
CCCCC(=O)OC[C@H]1O[C@@H](n2cnc3c(N)ncnc32)[C@@H]1CO |  | >10 µg/mL
CN(C)C(=O)C(=O)N1CCN2CCn3c(nc(C(=O)NCc4ccc(F)cc4)c(O)c3=O)C1C2 | microscopy | >1 µM
O=C(Nc1cc(C(=O)Nc2ccc(S(=O)(=O)O)cc2)cc(C(=O)Nc2ccc(S(=O)(=O)O)cc2)c1)Nc1cc(C(=O)Nc2ccc(S(=O)(=O)O)cc2)cc(C(=O)Nc2ccc(S(=O)(=O)O)cc2)c1 |  | >500 µg/mL
CCc1c(Cc2ccc(C)cc2)n(COCCc2ccccc2)c(=O)[nH]c1=O | MTT | 60 µM
CC(C)CN(C[C@@H](O)[C@H](Cc1ccccc1)NC(=O)O[C@H]1CO[C@H]2OCC[C@H]21)S(=O)(=O)c1ccc(-c2coc(-c3cccs3)n2)cc1 | MTT | >32.4 µM
Cc1[nH]c(=S)n(Nc2cccc(Br)c2)c1-c1ccccc1 |  | 44.24 µM
CCNC(=O)N1CCn2c(nc(C(=O)NCc3ccc(F)cc3)c(O)c2=O)C1(C)C | microscopy | >1 µM
CC(C)Cc1nc(-c2ccc(S(=O)(=O)N(CC(C)C)C[C@@H](O)[C@H](Cc3ccccc3)NC(=O)O[C@H]3CO[C@H]4OCC[C@H]43)cc2)co1 | MTT | >32.4 µM
Nc1ncnc2c1ccn2CCOCP(=O)(O)O |  | >8.27 µg/mL
O=C(/C=C/C(F)(F)F)NCCCCN1CCCC2=C[C@@H]3C[C@@H](CN4CCCC[C@H]34)[C@@H]21 | luminescence | >20 µM
COc1cc(Cc2cnc(/N=C3\C(=O)N(CN4CCN(c5cccc(C(F)(F)F)c5)CC4)c4ccc(C)cc43)nc2N)cc(OC)c1OC |  | 106.2 µM
O=c1[nH]cnc2c1ncn2[C@H]1C[C@@H](CO)O1 |  | >100 µg/mL
CCc1c(Cc2ccc(OC)c(OC)c2)n(COCC2CC2)c(=O)[nH]c1=O | MTT | >100 µM
COc1cc(Cc2cnc(/N=C3\C(=O)N(CN4CCCC4)c4ccc(C)cc43)nc2N)cc(OC)c1OC |  | 124 µM
O=c1ccn(N2C[C@H](CO)[C@H]2CO)c(=O)[nH]1 |  | >100 µg/mL
O=C(O)CN1CCn2c(nc(C(=O)NCc3ccc(F)cc3)c(O)c2=O)C1 | microscopy | >1 µM
Nc1nc(=S)c2ncn(CCOCP(=O)(O)O)c2[nH]1 |  | >8.9 µg/mL
Nc1nc(=O)n(CCN2C(=O)CSC2COc2ccccc2)cc1F |  | 100 µM
CCc1c(Cc2ccc(C)cc2)n(COCC2CC2)c(=O)[nH]c1=O | MTT | >100 µM
Cc1cccc(Nn2cnc(C)c2-c2cccc(C#N)c2)c1 |  | 44.7 µM
CCc1c(Cc2ccccc2)n(COCCCc2ccccc2)c(=O)[nH]c1=O | MTT | 23 µM
CCCCCCCCCCCCCCCC(=O)OC[C@H]1O[C@@H](n2cnc3c(N)ncnc32)[C@@H]1CO |  | >3 µg/mL
CN(C)C1COCCn2c1nc(C(=O)NCc1ccc(F)cc1)c(O)c2=O | microscopy | >1 µM
Nc1ncnc2c1ncn2[C@@H]1O[C@H](CO)[C@@H]1O |  | >100 µg/mL
CC(=O)OC(c1ccccc1)c1nc(-c2ccc(S(=O)(=O)N(CC(C)C)C[C@@H](O)[C@H](Cc3ccccc3)NC(=O)O[C@H]3CO[C@H]4OCC[C@H]43)cc2)co1 | MTT | >100 µM